{"source": "paper PMC6934829", "about": "“Multi-Factor Regulation of the Master Modulator LeuO for the Cyclic-(Phe-Pro) Signaling Pathway in Vibrio vulnificus” (Scientific Reports, 2019)", "key": {"[1]": {"test_system": "RNA polymerase holoenzyme", "assay": "pull-down", "details": "with 100 nM ToxR-N; commercial protein; label: biotin 5' on reverse primer; probe letters rebuilt from the primers and the genome"}, "[2]": {"target": "ToxR (full length) (UniProt Q9RP86)", "assay": "EMSA", "details": "ToxR 0-800 nM, competed by unlabeled same DNA; recombinant protein; residues 1-290; protein details: C-terminal Strep-tag; label: 32P 5' end; probe letters rebuilt from the primers and the genome"}}, "note": "The exact form of at least one protein or probe is not confirmed."}
{"sequence": "CTGCAGAAGTCGACTTTCCCAGTTACGTGTCAATTTCATAGCGCTAATATTGACGAGATTGTTGGGTTTTGTGGTCAAACAATAGTTGCAGCAAATGCTTTAAGGGGGTTAAGTGATGAGACATCACTTAGCTCAATAATTGCTACTTATGAGGGTATTTCTGTTTTTTATAGTTTTTTAGGTTTTACTTAAATATATGTTTTTAATCAACAAAAATGATAATTGGCTAAAATATTGTGATTAATTATCAATCTAGTTGCTAAACATCAATGAATTCAATGATAGTGAGCTGCGCCCTGAGAGTGATGAGGGCGATAAATATAAGAAATACAGGTTATCTATTCCTGACTATCAAATTCAAATTTGTTGACCGTTACACGAGAGGCGCACTAGATGTTAGATAAAAAAGATGCGATGAGCGCGATTGCCAGCTATCGAATGGAAAGTAC (double strand) [leuO upstream wild type (pull-down)]", "values": [{"measurement": "binding result", "setting": "[1]", "value": "binds"}]}
{"sequence": "TCTAGATAAAGTACTTTCCATTCGATAGCTGGCAATCGCGCTCATCGCATCTTTTTTATCTAACATCTAGTGCGCCTCTCGTGTAACGGTCAACAAATTTGAATTTGATAGTCAGGAATAGATAACCTGTATTTCTTATATTTATCGCCCTCATCACTCTCAGGGCGCAGCTCACTATCATTGAATTCATTGATGTTTAGCAACTAGATTGATAATTAATCACAATATTTTAGCCAATTATCATTTTTGTTGATTAAAAACATATATTTAAGTAAAACCTAAAAAACTATAAAAAACAGAAATACCCTCATAAGTAGCAATTATTGAGCTAAGTGATGTCTCATCACTTAACCCCCTTAAAGCATTTGCCGCAACTATTGTTTGACCACCAAACCCAACAATCTCGTCAATATTAGCGGGTACC (double strand) [leuO upstream 412 bp]", "values": [{"measurement": "binding result", "setting": "[2]", "value": "binds"}]}
